A mixed list of measured activities; the numbers were collected in NIAID ChemDB.

Shared fields: tests in culture; agent: Candida albicans; measure: zone

Zone: diameter of growth inhibition. Rows are shuffled and stem from different studies.

O=c1[nH]c(-c2cc3ccccc3oc2=O)nc2c1C(c1cccc([N+](=O)[O-])c1)c1ccc3ccccc3c1O2 ; read by: agar diffusion / agar ; dose: 100 µg/mL ; value: 9 mm
CC1=NN(c2nnc3c(n2)Nc2ccccc2C3)C(=O)C1 ; strain: ATCC 2091 ; dose: 1000 µg/mL ; value: 23 mm
O=c1oc2ccccc2cc1-c1nnc(/N=C/c2cccc(O)c2)o1 ; strain: ATCC 10231 ; read by: agar diffusion ; dose: 100 µg/mL ; value: 11 mm
CC(=O)Nc1nc(C)c(-c2n[nH]c(=S)n2N2C(=O)CSC2c2ccc(Br)cc2)s1 ; read by: agar diffusion ; dose: 100 µg/mL ; value: 28 mm
Cn1c(=O)c(-c2[nH][nH]c(=O)c2C=Nc2ccccc2)c(O)c2ccccc21 ; strain: ATCC 10231 ; read by: agar diffusion ; dose: 1 mg/mL ; value: 10 mm
CS(=O)(=O)c1nc(N)c(C#N)c(-c2ccc(O)cc2)n1 ; strain: MTCC 227 ; read by: agar diffusion ; dose: 50 µg/mL ; value: 17 mm
O=c1oc2ccccc2cc1-c1nnc(/N=C/c2cccc(Cl)c2)o1 ; strain: ATCC 10231 ; read by: agar diffusion ; dose: 100 µg/mL ; value: 14 mm
Cn1c(=O)c(-c2[nH][nH]c(=O)c2C=Nc2ccncc2)c(O)c2ccccc21 ; strain: ATCC 10231 ; read by: agar diffusion ; dose: 1 mg/mL ; value: 17 mm
COc1ccc(/C=N/n2c(C34CC5CC(CC(C5)C3)C4)n[nH]c2=S)cc1 ; strain: IFO 3007 ; read by: agar diffusion ; dose: 200 µg/disc ; value: <10 mm
O=c1[nH]c(-c2cc3ccccc3oc2=O)nc2c1C(c1ccc(O)cc1)c1ccc3ccccc3c1O2 ; read by: agar diffusion / agar ; dose: 150 µg/mL ; value: 15 mm
CC(=O)Nc1nc(C)c(-c2n[nH]c(=S)n2N2C(=O)CSC2c2cccc([N+](=O)[O-])c2)s1 ; read by: agar diffusion ; dose: 100 µg/mL ; value: 12 mm
CCOC(=O)Cc1nnc2n1-c1nc3ccccc3nc1NN2 ; strain: ATCC 2091 ; dose: 1000 µg/mL ; value: 25 mm
CS(=O)(=O)c1nc(N)c(C#N)c(-c2ccc(Cl)cc2)n1 ; strain: MTCC 227 ; read by: agar diffusion ; dose: 50 µg/mL ; value: 18 mm
CC(=O)N1CCN(c2ccc(OC[C@H]3CO[C@](Cn4ccnc4)(c4ccc(Cl)cc4Cl)O3)cc2)CC1 ; strain: C-2 ; read by: agar diffusion / agar ; dose: 20 mg/mL ; value: 12 mm
O=C1CC(c2ccccc2)CC2=C1C(c1cccc(C3C4=C(CC(c5ccccc5)CC4=O)OC4=C3C(=O)CC(c3ccccc3)C4)c1)C1=C(CC(c3ccccc3)CC1=O)O2 ; strain: ATCC 10231 ; read by: agar diffusion ; dose: 40 µg/disc ; value: 8 mm
COc1cc(/C=N/n2c(C34CC5CC(CC(C5)C3)C4)n[nH]c2=S)c([N+](=O)[O-])cc1OC ; strain: IFO 3007 ; read by: agar diffusion ; dose: 200 µg/disc ; value: <10 mm
CN(C)c1ccc(/C=N/c2nnc(-c3cc4ccccc4oc3=O)o2)cc1 ; strain: ATCC 10231 ; read by: agar diffusion ; dose: 100 µg/mL ; value: 16 mm
CC(=O)Nc1nc(C)c(-c2n[nH]c(=S)n2N2C(=O)CSC2c2ccc(N(C)C)cc2)s1 ; read by: agar diffusion ; dose: 100 µg/mL ; value: 16 mm
Cn1c(=O)c(-c2[nH][nH]c(=O)c2N=Nc2ccc(Br)cc2)c(O)c2ccccc21 ; strain: ATCC 10231 ; read by: agar diffusion ; dose: 1 mg/mL ; value: 8 mm
O=c1[nH]c(-c2cc3ccccc3oc2=O)nc2c1C(c1ccccc1)c1ccc3ccccc3c1O2 ; read by: agar diffusion / agar ; dose: 150 µg/mL ; value: 18 mm
CCOC(=O)C1CCN(Cn2nc(C34CC5CC(CC(C5)C3)C4)n(/N=C/c3ccc(OC)c(OC)c3)c2=S)CC1 ; strain: IFO 3007 ; read by: agar diffusion ; dose: 200 µg/disc ; value: <10 mm
CN(C)c1ccc(C2c3ccc4ccccc4c3Oc3nc(-c4cc5ccccc5oc4=O)[nH]c(=O)c32)cc1 ; read by: agar diffusion / agar ; dose: 150 µg/mL ; value: 15 mm
C=CC(C)(C)c1cc(C2CC(=O)c3c(cc(O)c(CC=C(C)C)c3O)O2)c(O)cc1O ; strain: hemoculture isolate 15564 ; read by: agar diffusion / agar ; dose: 2 mg/mL ; value: 12 mm
CSC1=NC(c2ccccc2O)C(C#N)=C(N)N1 ; strain: MTCC 227 ; read by: agar diffusion ; dose: 50 µg/mL ; value: 19 mm
CC1(C)CCC2=C(C1=O)C(c1ccc(C3C4=C(CCC(C)(C)C4=O)OC4=C3C(=O)C(C)(C)CC4)cc1)C1=C(CCC(C)(C)C1=O)O2 ; strain: ATCC 10231 ; read by: agar diffusion ; dose: 40 µg/disc ; value: 0 mm
COc1ccc(C2=NOC(c3cc4c([nH]3)CC(C)(C)CC4=O)C2)cc1 ; strain: ATCC 2091 ; dose: 1000 µg/mL ; value: 23 mm
CC1/C(=N\O)C(=O)NCCCOc2c(O)cc(c(Br)c2Br)C/C2=N\O[C@@H]3[C@H](Br)[C@@]4(C=C[C@@]3(O)C/C(=N\O)C(=O)NC[C@@H](O)[C@@H](O)[C@H](O)CNC2=O)Oc2cc1cc(Br)c2O4 ; read by: agar diffusion ; dose: 50 µg/disc ; value: 9 mm
Cn1c(=O)c(-c2[nH][nH]c(=O)c2N=Nc2ccccc2Cl)c(O)c2ccccc21 ; strain: ATCC 10231 ; read by: agar diffusion ; dose: 1 mg/mL ; value: 12 mm
CS(=O)(=O)c1nc(N)c(C#N)c(-c2ccccc2O)n1 ; strain: MTCC 227 ; read by: agar diffusion ; dose: 50 µg/mL ; value: 17 mm
COc1ccccc1/C=N/c1nnc(-c2cc3ccccc3oc2=O)o1 ; strain: ATCC 10231 ; read by: agar diffusion ; dose: 100 µg/mL ; value: 13 mm
CN(C)C=O ; strain: ATCC 2091 ; dose: 1000 µg/mL ; value: 21 mm
CC1(C)CC(=O)C2=C(C1)OC1=C(C(=O)CC(C)(C)C1)C2c1cccc(C2C3=C(CC(C)(C)CC3=O)OC3=C2C(=O)CC(C)(C)C3)c1 ; strain: ATCC 10231 ; read by: agar diffusion ; dose: 40 µg/disc ; value: 7 mm
CS(=O)(=O)c1nc(N)c(C#N)c(-c2ccccc2Cl)n1 ; strain: MTCC 227 ; read by: agar diffusion ; dose: 25 µg/mL ; value: 17 mm
C[C@H]1[C@H](O)[C@@H](C)/C=C/C=C/C=C/C=C/C=C/C=C/C=C/[C@H](O[C@@H]2O[C@H](C)[C@@H](O)[C@H](N)[C@@H]2O)C[C@@H]2O[C@](O)(C[C@@H](O)C[C@@H](O)CC[C@H](O)[C@@H](O)C[C@@H](O)CC(=O)O[C@H]1C)C[C@H](O)[C@H]2C(=O)O ; read by: agar diffusion / agar ; dose: 100 µg/mL ; value: 23.5 mm
CC(=O)Nc1nc(C)c(-c2n[nH]c(=S)n2N2C(=O)CSC2c2ccc(Cl)cc2)s1 ; read by: agar diffusion ; dose: 100 µg/mL ; value: 24 mm
COc1ccccc1N1CCN(Cn2nc(C34CC5CC(CC(C5)C3)C4)n(/N=C/c3c(F)cccc3F)c2=S)CC1 ; strain: IFO 3007 ; read by: agar diffusion ; dose: 200 µg/disc ; value: <10 mm
Cn1c(=O)c(-c2[nH][nH]c(=O)c2/C=N/c2cscn2)c(O)c2ccccc21 ; strain: ATCC 10231 ; read by: agar diffusion ; dose: 1 mg/mL ; value: 14 mm
O=C1CCCC2=C1C(c1ccc(C3C4=C(CCCC4=O)OC4=C3C(=O)CCC4)cc1)C1=C(CCCC1=O)O2 ; strain: ATCC 10231 ; read by: agar diffusion ; dose: 40 µg/disc ; value: 8 mm
COc1ccc(C2=CC(c3ccc(S(N)(=O)=O)cc3)C(c3ccccc3)C2Br)cc1 ; strain: ATCC 2091 ; dose: 1000 µg/mL ; value: 23 mm
CSC1=NC(c2ccccc2Cl)C(C#N)=C(N)N1 ; strain: MTCC 227 ; read by: agar diffusion ; dose: 25 µg/mL ; value: 17 mm
COC1=CC(=O)C[C@@H](C)[C@]12Oc1c(Cl)c(OC)cc(OC)c1C2=O ; read by: agar diffusion ; dose: 100 µg/mL ; value: 34 mm
CCOC(=O)C1CCN(Cn2nc(C34CC5CC(CC(C5)C3)C4)n(/N=C/c3ccccc3F)c2=S)CC1 ; strain: IFO 3007 ; read by: agar diffusion ; dose: 200 µg/disc ; value: <10 mm
CSC1=NC(c2ccccc2)C(C#N)=C(N)N1 ; strain: MTCC 227 ; read by: agar diffusion ; dose: 25 µg/mL ; value: 15 mm
NS(=O)(=O)c1ccc(C2C=C(c3ccc(Cl)cc3)C(Br)C2c2ccccc2)cc1 ; strain: ATCC 2091 ; dose: 1000 µg/mL ; value: >40 mm
CS(=O)(=O)c1nc(N)c(C#N)c(/C=C\c2ccccc2)n1 ; strain: MTCC 227 ; read by: agar diffusion ; dose: 50 µg/mL ; value: 18 mm
COc1ccc(C2CC(=O)C3=C(C2)OC2=C(C(=O)CC(c4ccc(OC)c(OC)c4)C2)C3c2ccc(C3C4=C(CC(c5ccc(OC)c(OC)c5)CC4=O)OC4=C3C(=O)CC(c3ccc(OC)c(OC)c3)C4)cc2)cc1OC ; strain: ATCC 10231 ; read by: agar diffusion ; dose: 20 µg/disc ; value: 0 mm
CCOC(=O)N1CCN(Cn2nc(C34CC5CC(CC(C5)C3)C4)n(/N=C/c3c(Cl)cccc3Cl)c2=S)CC1 ; strain: IFO 3007 ; read by: agar diffusion ; dose: 200 µg/disc ; value: <10 mm
CC1=C(Cl)C(O)=CC(=O)C12Oc1cc(O)c(Cl)c(C)c1C2=O ; strain: MTCC 227 ; read by: agar diffusion ; dose: 100 µg/mL ; value: 25 mm

Repeating the final 2 entries:

smiles | strain | read by | dose | value
CCOC(=O)N1CCN(Cn2nc(C34CC5CC(CC(C5)C3)C4)n(/N=C/c3c(Cl)cccc3Cl)c2=S)CC1 | IFO 3007 | agar diffusion | 200 µg/disc | <10 mm
CC1=C(Cl)C(O)=CC(=O)C12Oc1cc(O)c(Cl)c(C)c1C2=O | MTCC 227 | agar diffusion | 100 µg/mL | 25 mm